## Percent effect of library compounds

Values are the deposited “Percent Effect”, in %. The record does not define 0% and 100%; most values in the screen are far below 50% and negative numbers occur (in some assays of this library far below -100). The entries come from a sample that favours strong results. Two or more numbers in one place are separate tests of the same structure; such repeats can differ widely. A dash means the value is not listed here; it may have been measured.

A: 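Growth of Mycobacterium tuberculosis over 3 days (7H9 medium with glucose and tyloxapol); the read-out is not stated. Compounds at 50 µM. Higher reads as more growth inhibition (inferred: compounds with an IC50 in retests scored well above the rest). Of about 69,000 compounds tested this way, about 760 (1.1%) reached 50% or more in at least one test.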
B: 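Growth of Mycobacterium tuberculosis over 4 days (cholesterol / DPPC medium with tyloxapol); the read-out is not stated. Concentration: 50 µM. Direction is inferred from retests: higher values go with more growth inhibition. Of about 69,000 compounds tested this way, about 370 (0.54%) reached 50% or more in at least one test.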

- CC(C)(C)OC(=O)NCC(=O)NCc1ccc(Cl)s1 : A: 15.6%
- CC(=O)c1c(F)cccc1N1CCC(CS(N)(=O)=O)CC1 : A: 6.862%
- O=C1N(Cc2ccc(F)c(F)c2)CCCC1(O)CNCc1ncc[nH]1 (stereo not shown) : A: -7.36%
- CCSc1ncc(CN2CC[C@@](O)(COC)C(C)(C)C2)cn1 : B: 18.47%
- Fc1ccccc1CN1CCC[C@@H](Cn2nnc(-c3cccs3)n2)C1 : A: 51.28%; B: 29.94% and 38.06%
- COc1ccc(C(=O)NCc2ccc(C(=O)O)o2)cc1 : A: -20.82% and 0.4671%
- Cc1nc(C)c(CCN2CCC(Oc3ccccc3F)CC2)s1 : A: 56.83%
- c1cc(-c2nc3c(c(NCCc4c[nH]cn4)n2)CCNCC3)ccn1 : A: 7.548% and -7.123%
- O=C(Nc1ccccc1OC1CCOC1)c1ccon1 (stereo not shown) : A: -15.37%
- COc1ccccc1C(C)(C)NCc1ccco1 : A: 2.39%; B: -1.729%
- CC(=O)N1CCc2nc(-c3ccccc3)nc(NC(C)C)c2CC1 : A: 0.5089%
- Cc1cccc(CN2C[C@@H](CN3CCCN(C)CC3)[C@@H](CO)C2)n1 : B: -26.94%
- CNCc1nc(-c2ccc3c(c2)OCO3)c[nH]1.Cl.Cl : A: -32.47% and -2.545%
- CCc1nnc2n1CCN(CC(=O)Nc1sccc1C#N)C2 : A: 0.4331%
- COc1cc(OC)cc(N2CCC(NC(=O)c3cccn3C)CC2)c1 : A: 12.18%; B: 7.143%
- O=C(NC1CC2(CCN(CCO)CC2)Oc2ccccc21)c1csnn1 (stereo not shown) : A: -0.7027%
- CN(Cc1nc(Cc2cccc(C(F)(F)F)c2)no1)C1CCOCC1 : A: 14.39% and 21.78%
- Cc1cnn(CC2CN(c3ncnc4c3CCC4)CCO2)c1 (stereo not shown) : A: 20.36% and 7.355%
- O=C(CSCC1CC1)N1CCCN(c2ccc(F)cc2)CC1 : A: 17.09% and 2.03%; B: -10.52%
- c1ccc(Cn2ccnc2CNC2CCCOc3ccccc32)cc1 (stereo not shown) : A: 34.85%
- Nc1ncc2c(n1)CN(C1CCCC1)C2=O : A: 91.73%; B: 68.78%
- COc1cc2c(cc1CNC(Cc1cccs1)c1nccs1)OCO2.Cl (stereo not shown) : A: 3.753%; B: 30.43% and 42.41%
- CCn1nc(C)c2nc(C(C)C)nc(NCCCO)c21 : A: 13.28%
- CCn1nnc(NCc2ccc(-c3ccc(Br)cc3)o2)n1 : A: 33.54% and 60.24%; B: 48.42%
- CCC(Nc1nnnn1-c1ccccc1)C(=O)NCc1ccsc1 (stereo not shown) : A: 40.93%; B: -7.701%
- c1cc(-c2n[nH]c(CNc3nnc(C4CC4)o3)n2)ccn1 : A: 8.21%; B: -0.2663%
- CCc1nc(NC2CCCN(C(=O)C3CC3)C2)c2cnn(C)c2n1 (stereo not shown) : B: -6.872%
- O=C(NCC(=O)N1CCc2ccccc2C1)c1ccoc1 : A: -24.12%
- CCc1[nH]c2c(CNc3cc(C)nc(NC)n3)cc(C)cc2c1C : A: 71.91% and 56.62%; B: 69.7%
- c1csc(CN2CCCN(c3ccc(Cn4ccnc4)cn3)CC2)c1 : A: 13.73%; B: -6.669%
- Cc1nc(CN2CCCC(N(C)c3ccc(C#N)cn3)C2)no1 (stereo not shown) : A: 8.806%
- COc1ccc(CC(C)Nc2cccc(F)c2)cc1 (stereo not shown) : A: 5.859%; B: 39.77%
- CN(CC1(C)COC1)C(=O)c1cc(-c2cnn(C)c2)nc2ccccc12 : B: 18.49% and 74.68%
- CC(C)Oc1ccccc1CNC(=O)c1[nH]ncc1Br : A: -15.89% and 32.88%
- O=C(c1ccncc1)N1CCCC(c2ncncc2-c2ccncc2)C1 (stereo not shown) : B: -16.95%
- Cc1ccccc1OCC1CCCN(c2cc(N)nc(N)n2)C1 (stereo not shown) : A: 72.18%; B: 72.99%
- O=C(c1noc2c1CCCC2)N1CCCC(c2nccs2)C1 (stereo not shown) : A: 25.89%; B: 16.88%

Some entries from above, unchanged:

Compound	A	B
CCC(Nc1nnnn1-c1ccccc1)C(=O)NCc1ccsc1 (stereo not shown)	40.93	-7.701
Cc1cccc(CN2C[C@@H](CN3CCCN(C)CC3)[C@@H](CO)C2)n1	-	-26.94
CCSc1ncc(CN2CC[C@@](O)(COC)C(C)(C)C2)cn1	-	18.47

From ChEMBL document CHEMBL3988442, “University of Dundee, Small-Polar-MMV Screening Library” (2021).